The values that follow come from paper PMC8413292, “Small-molecule polymerase inhibitor protects non-human primates from measles and reduces shedding” (Nature Communications, 2021).

Structures are written as SMILES. Bounds are passed on as bounds.

The data set has as its system MV/FrankfurtMain.DEU/17.11 (genotype D8). Nature of the data set: Neutralizing antibody titers in serum. It is filed as in vivo, squirrel monkeys (Saimiri sciureus). The protocol:
White blood cell counts, viral load quantification in PBMCs, and quantification of neutralizing antibody titers were performed as follows: for white blood cell counts, blood was diluted 1:100 in 3% acetic acid and cells were counted using a Neubauer chamber. For viral load quantification in PBMCs, blood was centrifuged at 3000 rpm for 15 min and serum was frozen at −20 °C until further use. Red blood cell lysis was performed and the remaining PBMCs were counted using a Neubauer chamber. Viral titers in PBMCs were quantified in quadruplicates using limited dilution method and calculated as TCID50/10^6 PBMCs. Neutralizing antibody titers were quantified by incubating MeV with 2-fold serial dilutions of the respective serum for 20 min at room temperature in quadruplicates. Vero/hSLAM cells were added and incubated for 3 days at 37 °C. Neutralizing antibody titers are expressed as the reciprocal of the highest serum dilution showing no signs of infection. For virus titration from throat swabs, swabs were placed in 150 μl DMEM with 3% penicillin/streptomycin and the titer was quantified by limited dilution method.

Turning to `Cn1nc(C(F)(F)F)cc1C(=O)Nc1ccc(S(=O)(=O)N2CCCC[C@H]2CCN2CCOCC2)cc1` [ERDRP-0519], the “development of neutralizing antibodies” value is “developed high levels of neutralizing antibodies” (all animals from the therapeutically treated groups) and “two animals did not develop neutralizing antibodies” (prophylactically treated group, until end of study). For the same compound, for the setting “animals of all groups including prophylactically treated, reciprocal serum dilution”, the “neutralizing antibody titers, on average” value is given as at least 120.
